Anti-infective test results gathered from many reports (values: NIAID ChemDB through PubChem).

All rows: growth or infection tests; species: Herpes simplex virus 2; endpoint: inhibition

An empty or dashed field is not shown. Inhibition is in % at the dose shown (toxicity tests: loss of growth or viability). Neighbouring rows are from separate reports.

compound,strain,cells,method,tested at,result
COC(=O)/C=C/c1cn([C@H]2C[C@H](O)[C@@H](CO)O2)c(=O)[nH]c1=O,-,HEP-2,cytopathic effect,30 µg/mL,≥25%
CCCc1cn([C@H]2C[C@H](O)[C@@H](CO)O2)c(=O)[nH]c1=O,333,HELA BU,plaque count,10 µM,91%
CC12CCC3C(C[C@H](OS(=O)(=O)O)[C@H]4C[C@@H](OS(=O)(=O)O)CCC34C)C1CCC2C(=O)CO,G,VERO,plaque count,80 µg/mL,6%
Nc1nc2c(ncn2COC(CO)CO)c(=O)[nH]1,333,WI-38,plaque count,2 µM,90%
CCc1cn([C@H]2C[C@H](O)[C@@H](CO)O2)c(=O)[nH]c1=O,333,HeLa,plaque count,10 µM,>99%
Cc1cn([C@@H]2O[C@H](CO)[C@@H](O)[C@@H]2F)c(=O)[nH]c1=O,G,VERO,virus yield,2.5 µM,90%
CSc1cnc(=O)n([C@H]2C[C@H](O)[C@@H](CO)O2)c1,333,HeLa,plaque count,400 µM,97%
O=c1[nH]c(=O)n([C@H]2C[C@H](O)[C@@H](CO)O2)cc1CCBr,-,HEP-2,cytopathic effect,100 µg/mL,≥25%
Cc1cn([C@H]2C[C@H](O)[C@@H](CO)O2)c(=O)[nH]c1=O,333,HeLa,plaque count,25 µM,0%
O=c1[nH]c(=O)n([C@H]2C[C@H](O)[C@@H](CO)O2)cc1CCCl,K979,HEP-2,cytopathic effect,3 µg/mL,≥25%
O=c1[nH]c(=O)n([C@H]2C[C@H](O)[C@@H](CO)O2)cc1CCI,-,HEP-2,cytopathic effect,30 µg/mL,≥25%
CC(C)=CCC[C@@H](COS(=O)(=O)O)C1CCC2C3CC[C@H]4C[C@H](OS(=O)(=O)O)[C@@H](O)CC4(C)C3CCC21C,G,VERO,plaque count,10 µg/mL,16.6%
CN1C(=O)NC(=O)N([C@H]2C[C@H](O)[C@@H](CO)O2)C1(C)C,35D,BHK-21,plaque count,50 µM,90%
O=c1[nH]c(=O)n([C@H]2C[C@H](O)[C@@H](CO)O2)cc1/C=C/Br,333,HELA BU,plaque count,10 µM,98%
Nc1nc2c(ncn2COC(CO)CO)c(=O)[nH]1,K979,HEP-2,cytopathic effect,0.3 µg/mL,≥25%
CC(=O)O[C@H]1CC2=CCC3C(CCC4(C)C(C(CCC=C(C)C)COS(=O)(=O)O)CCC34)C2(C)C[C@@H]1OS(=O)(=O)O,G,VERO,plaque count,80 µg/mL,100%
Nc1nc(=O)n([C@@H]2O[C@H](CO)[C@@H](O)[C@@H]2F)cc1I,G,VERO,virus yield,0.5 µM,97.5%
CC12CC[C@H](OS(=O)(=O)O)CC1=CCC1C2CCC2(C)C(C(=O)COS(=O)(=O)O)CCC12,G,VERO,plaque count,80 µg/mL,34%
O=c1[nH]c(=O)n([C@H]2C[C@H](O)[C@@H](CO)O2)cc1CCO,-,HEP-2,cytopathic effect,100 µg/mL,≥25%
O=c1[nH]c(=O)n([C@@H]2O[C@H](CO)[C@@H](O)[C@@H]2F)cc1I,K979,HEP-2,cytopathic effect,0.1 µg/mL,≥25%
O=C(O)C(O)c1ccccc1,G,CaSki,plaque count,1 µg/mL,54%
O=c1[nH]c(=O)n([C@H]2C[C@H](O)[C@@H](CO)O2)cc1CCCl,-,HEP-2,cytopathic effect,3 µg/mL,≥25%

Repeating the final 2 entries:

compound	strain	cells	method	tested at	result
O=C(O)C(O)c1ccccc1	G	CaSki	plaque count	1 µg/mL	54%
O=c1[nH]c(=O)n([C@H]2C[C@H](O)[C@@H](CO)O2)cc1CCCl	-	HEP-2	cytopathic effect	3 µg/mL	≥25%